Earlier results, collected in US6476002B1 (priority 1997, dated 2002).

Tested on: placental or endometrial growth
Conditions: in vivo

CO[C@@H]1[C@H](OC(=O)NC(=O)CCl)CC[C@]2(CO2)[C@H]1[C@@]1(C)O[C@@H]1CC=C(C)C [AGM-1470]
effect on female reproduction, placental or endometrial growth: inhibits
